Biological target: drug-resistant HIV-1 PR (PR02-A) harboring L10I/G48S/I54V/V82F/L90M mutations (Human immunodeficiency virus type 1 group M subtype B, UniProt P12497, G536S/I542V/L498I/L578M/V570F)
Assay: biochemical
Procedure: In vitro transcription and cell-free protein synthesis were performed using WEPRO7240 wheat germ extract (CellFree Sciences, Yokohama, Japan). Transcription was performed using SP6 RNA polymerase, as described previously ([Matsunaga et al., 2014]). The translation reaction was performed in bilayer mode with slight modifications. Briefly, translation mixture (forming the bottom layer) consisted of 10 μl of each mRNA (usually 30–35 μg), 10 μl of WEPRO7240 (CellFree Sciences, Yokohama, Japan), and 0.8 μl of 1 μg/μl creatine kinase (Roche Diagnostics K. K., Tokyo, Japan) in 20.8 μl of SUB-AMIX® (CellFree Sciences, Yokohama, Japan). […] In actual drug susceptibility testing, quantitations of synthesized HIV-1 PR proteins were performed by densitometric scanning of Coomassie Brilliant Blue (CBB)-stained bands as compared with purified HIV-1 PR or bovine serum albumin (BSA) ([Madin et al., 2000]).
CFDSA was performed using cell-free–synthesized PR, substrate peptide, and the AlphaScreen® system (PerkinElmer, Boston, MA, USA). […] Luminescence signals were analyzed with the AlphaScreen detection program using the EnSpire software (PerkinElmer), and light intensities in the presence of the serially diluted inhibitors were used to calculate their IC50 values. PI-resistance levels were determined by comparing the IC50 values of drug-resistant PR with those of NL4-3 PR. […]

## Cc1cccc(C)c1OCC(=O)N[C@@H](Cc1ccccc1)[C@@H](O)C[C@H](Cc1ccccc1)NC(=O)[C@H](C(C)C)N1CCCNC1=O [LPV, lopinavir]
  IC50: 0.215 µM

Source: paper PMC4628118 (Frontiers in Microbiology, 2015)
